Source: ChEMBL document CHEMBL3885881, “DrugMatrix”

Organism: Rattus norvegicus
Experiment: DrugMatrix - Regimen: Daily Repeat
Assay type: toxicity, organism-based, Sprague-Dawley
Parameters: regimen Daily Repeat, gender Male, age 6-8 weeks
Conditions: in vivo, po, 120 h, tissue Blood, route oral GAVAGE, time 5 day, vehicle 100 % WATER

Sequence THIMEROSAL has an MONOCYTE (1 mg/kg, dose level Low) of 2.33% and an MONOCYTE (10 mg/kg, dose level High) of 2.33%.
